Experimental data taken from patent US6906198B1, “Antipicornaviral compounds, their preparation and use” (Agouron Pharmaceuticals, Inc., priority 1998, dated 2005).

Tests used:
HRV serotype 17 = assay: Antirhinoviral H1-HeLa cell culture assay (XTT), HRV-17; type: cell-based, human rhinovirus; settings: therapeutic index CC50/EC50, HRV (17)
Experimental: (§1) Antirhinoviral H1-HeLa Cell Culture Assay
(§2) In this cell protection assay, the ability of compounds to protect cells against HRV infection was measured by the XTT dye reduction method, which is described in Weislow et al., J. Natl. Cancer Inst. 1989, vol. 81, 577-586.
(§3) H1-HeLa cells were infected with HRV-14 at a multiplicity of infection (m.o.i.) of 0.13 (virus particles/cell) or mock-infected with medium only. Infected or mock-infected cells were resuspended at 8×10^5 cells per mL, and incubated with appropriate concentrations of the compounds to be tested. Two days later, XTT/PMS was added to test plates and the amount of formazan produced was quantified spectrophotometrically at 450/650 nm. The EC50 value was calculated as the concentration of compound that increased the percentage of formazan production in compound-treated, virus-infected cells to 50% of that produced by compound-free, mock-infected cells. The 50% cytotoxic dose (CC50) was calculated as the concentration of compound that decreased the percentage of formazan produced in compound-treated, mock-infected cells to 50% of that produced by compound-free, mock-infected cells. The therapeutic index (TI) was calculated by dividing the CC50 value by the EC50 value.
(§4) All strains of human rhinovirus (HRV) for use in this assay were purchased from American Type Culture Collection (ATCC), except for HRV serotype-14 (produced from the infectious cDNA clone constructed by Dr. Robert Rueckert, Institute for Molecular Virology, University of Wisconsin, Madison, Wis.). HRV stocks were propagated and viral assays were performed in H1-HeLa cells (ATCC). Cells were grown in minimal essential medium with 10% fetal bovine serum, available from Life Technologies (Gaithersburg, Md.).
(§5) The compounds were tested against control compounds WIN 51711, WIN 52084, and WIN 54954 (obtained from Sterling-Winthrop Pharmaceuticals), Pirodavir (obtained from Janssen Pharmaceuticals), and Pleconaril (prepared according to the method described in Diana et al., J. Med. Chem 1995, vol. 38, 1355). Antiviral data obtained for the test compounds are shown in Tables 1 and 3, where all data are for HRV serotype-14 unless otherwise noted in parentheses.

HRV serotype 89 = assay: Antirhinoviral H1-HeLa cell culture assay (XTT), HRV-89; type: cell-based, human rhinovirus; settings: therapeutic index CC50/EC50, HRV (89)
Experimental: as §1, §2, §3, §4, §5

CCOC(=O)/C=C/[C@H](C[C@@H]1CCNC1=O)NC(=O)[C@@H](CC(=O)[C@@H](NC(=O)c1cc(C)on1)C(C)C)Cc1ccc(F)cc1 [(B-2), Ethyl-3-{(5′-Methylisoxazole-3′-carbonyl)-L-ValΨ(COCH2)-L-(4-F-Phe)-L-((S)-Pyrrol-Ala)}-E-Propenoate] was tested, and the TI (HRV serotype 17) was over 10000 and the TI (HRV serotype 89) was over 11111.
